{"source": "paper PMC11956011", "about": "“An Amazing 30-Year Journey around the DABO Family: A Medicinal Chemistry Lesson on a Versatile Class of Non-nucleoside HIV-1 Reverse Transcriptase Inhibitors” (Journal of Medicinal Chemistry, 2025)", "origin": "cited, not measured here", "tested_on": "Y181I HIV-1 RT", "settings": "Fig 5"}
{"compound": "CC(c1cc(=O)[nH]c(SC2CCCC2)n1)c1c(F)cccc1Cl", "note": "(centres unmarked) [compound 40]", "values": [{"measurement": "ID50: Y181I", "value": 16.6, "unit": "µM"}]}
{"compound": "CCCCSc1nc(C(C)c2c(F)cccc2Cl)cc(=O)[nH]1", "note": "(centres unmarked) [compound 39]", "values": [{"measurement": "ID50: Y181I", "value": 15.2, "unit": "µM"}]}
